Legend:
[1] = target: Factor XIa (FXIa), human, human, P03951 19-625; assay: cell-based or functional assay
[2] = target: Factor VIIa (FVIIa), not stated, P08709 61-466; assay: enzyme kinetics, dose-dependent inhibition with chromogenic substrate
trypsin, not stated = assay: as above
[3] = target: plasmin, not stated, P00747 97-810; assay: as above
[4] = target: kallikrein, not stated, P03952 20-638; assay: as above
[5] = target: Factor Xa (FXa), not stated, P00742 41-179; P00742 235-488; assay: as above

rFasxiatorN17K (BF01 N(17)K) gave an IC50, FXIa inhibition, 40 min incubation [1] of 2.96 nM.
Substance rFasxiatorN17R (BF01 N(17)R) has an IC50, FXIa inhibition, 40 min incubation [1] of 0.94 nM.
rFasxiatorN17R,L19E (BF01 N(17)R, L19E) gave a Ki [2] of 693 nM, a Ki (trypsin, not stated) of 9.7 nM and a Ki [3] of 146 nM. It also gave a Ki [4] of 5300 nM, a Ki [5] of 718 nM and an IC50, FXIa inhibition, 40 min incubation [1] of 1.26 nM.
